# Measured data: PubChem BioAssay AID504761 (Drosophila RNAi Screening Center, 2011)
# Aim: 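Genome-wide fly cell screen for genes dengue virus requires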 (primary screen)
# Cells: D.Mel-2 cells from Drosophila
# Reagents: long dsRNA against Drosophila genes
# Conditions: infection with dengue virus type 2; dose and infection time not stated
# Measured: 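Cells stained for dengue envelope protein and imaged; percent of infected cells per well on duplicate plates, ranked by infection, with stained nuclei counted for cell number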
# Direction: infection score: higher = more virus-infected cells; cell count: higher = more cells in the well
# Active means: 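Very low infection ranking in both replicate wells (chance probability at most 0.065), then a retest showing infection dropped 1.5-fold or more at p below 0.05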
# Meaning of the calls: active = confirmed: knock-down lowers infection; inactive = not picked or not confirmed
# In all, the deposit lists about 22,000 reagents; shown is a random part of those that have a named target and a result. In the full data, 116 (0.52%) got an active call. 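Calls depend on retest data that are not deposited; infection was ranked per plate without normalising between plates; the unit of the infection score is not given.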 Raw values are not corrected between plates. Entries without a mark were called inactive. The record does not give: the amount of reagent, the time to read-out.
target gene,amplicon,"infection score, replicate 1","infection score, replicate 2","cell count, replicate 1","cell count, replicate 2"
SAK,DRSC11879,4.77,9.22,5865,5802
SAK,DRSC23329,0.76,31.1,6466,5838
SAK,DRSC29461,12.9,0.57,5933,353
rho-6,DRSC02588,2.66,19.6,1276,5937
rho-6,DRSC29070,11.5,4.73,5829,529
ttm50,DRSC18587,3.71,12.4,6096,6421
Set,DRSC16861,13.2,12.9,6252,6262
CG30083,DRSC05572,2.31,1.44,6027,5423
nito,DRSC05943,19.4,14.4,4540,5529
Atac1,DRSC03155,1.17,4.89,6397,6076
RpS28b,DRSC18258,2.27,17.4,5691,5663
RpS28b,DRSC29909,22.1,21.5,5612,5750
ssp7,DRSC18878,4.57,7.42,6411,6238
Pect,DRSC02867,2.78,9.71,6582,6476
Pect,DRSC02868,5.13,3.96,4564,4802
CG9380,DRSC04549,25.2,0.53,5517,562
Dfd,DRSC12593,7.2,2.48,6305,6402
Dfd,DRSC27981,6.38,5.9,6782,6928
Vps20,DRSC04448,9.53,23.1,6285,6342
spin,DRSC07176,4.25,4.59,5622,6870
spin,DRSC22271,5.43,2.45,6238,6660
RpS19b,DRSC15773,9.64,7.6,3961,5266
eIF2alpha,DRSC20327,25.2,18.6,4767,5085
Nin,DRSC02007,2.93,0.94,5733,6370
CG31886,DRSC03248,33,6.27,5667,6009
CG31886,DRSC27420,8.82,9.51,6948,6507
mex1,DRSC11368,2.89,8.06,6097,6253
CG43896,DRSC10754,3.07,2.52,5865,6316
CG43896,DRSC26965,10.8,5.8,6410,6451
Pka-C3,DRSC09402,5.14,,5719,995
Pka-C3,DRSC11254,1.04,2.2,6073,6010
Pka-C3,DRSC25050,3.59,4.48,5675,6295
ena,DRSC05779,0.06,0.19,6442,6204
ena,DRSC07610,2.44,7.05,6918,6705
ena,DRSC25393,0.91,2.29,5712,5885
Pgm1,DRSC10490,5.5,6.66,6688,6366
Pgm1,DRSC28517,0.45,8.34,446,6212
CG30010,DRSC05193,0.58,0.87,6050,5165
tio,DRSC03739,4.9,5.38,6593,6565
Wdr37,DRSC14500,5.74,4.58,5875,6467
HipHop,DRSC10734,1.08,4.24,6137,6172
spel1,DRSC03617,4.61,4.56,6069,6026
spel1,DRSC29609,12.3,16.3,4914,3945
Nca,DRSC11233,5.26,8.23,6697,6610
CG13894,DRSC23205,4.24,4.7,6786,6580
CG13894,DRSC29274,23.7,23.6,3974,5757
CG30485,DRSC06376,11.3,4.03,6458,6549
SERCA,DRSC04600,15.7,22.7,5447,5327
SERCA,DRSC26195,6.6,2.41,5398,5219
Dyrk2,DRSC03610,4.18,11,6173,5741
Dyrk2,DRSC29029,11.6,,4190,394
CR10032,DRSC12499,3.61,5.23,6423,6499
CR10032,DRSC28183,9.52,3.93,6558,6688
pasi2,DRSC16380,11,3.96,6168,7399
CG31998,DRSC17137,4.87,6.18,5627,5471
CG31998,DRSC17138,3.7,,1380,296
CG12643,DRSC17849,3.58,36.4,6447,6090
CG12643,DRSC24898,4.26,5.03,6385,6261

Limited to “cell count, replicate 1”, for 8 of the entries above:
mex1 [DRSC11368]: 6097
CG43896 [DRSC10754]: 5865
CG43896 [DRSC26965]: 6410
Pka-C3 [DRSC09402]: 5719
Pka-C3 [DRSC11254]: 6073
Pka-C3 [DRSC25050]: 5675
ena [DRSC05779]: 6442
ena [DRSC07610]: 6918
